Compound potency records, mixed from different reports. Data source: NIAID ChemDB in PubChem.

Shared fields: host cell toxicity; read-out: CC50

CCn: concentration that lowers growth or viability of the cells by n%.

{"SMILES": "CCc1ccc(CCN=C2NC(=O)/C(=C/c3ccc(-c4ccc(C(=O)O)c(O)c4)o3)S2)cc1", "read by": "MTT", "cell line": "MCF-7", "result": "4.5 µM"}
{"SMILES": "Nc1nccc(NCC2(CO)CC(Cc3ccccc3)C2)n1", "cell line": "MDCK", "result": "4.4–12 µM"}
{"SMILES": "Cc1cc(CCCOc2c(C)cc(-c3noc(C(F)(F)F)n3)cc2C)on1", "read by": "MTT / crystal violet", "cell line": "VERO 76", "result": ">100 µg/mL"}
{"SMILES": "OCC1OC(n2c(Br)nc3cc(Cl)c(Cl)cc32)C(O)C1O", "read by": "ATP", "cell line": "MOLT-3", "result": "62 µM"}
{"SMILES": "C=CCC1=CCCc2cc(OC)c(OC)cc21", "cell line": "HEK 293", "result": "<7.5 µM"}
{"SMILES": "Clc1ccc2c(NCCCNc3nccc(N4CCCCC4)n3)ccnc2c1", "read by": "MTS / tetrazolium / absorbance", "cell line": "CRFK cells", "result": "9.8 µM"}
{"SMILES": "Nc1cc(Cl)nc(N)n1", "cell line": "MDCK", "result": ">690 µM"}
{"SMILES": "Clc1ccc2c(NCCCCNc3nccc(Cl)n3)ccnc2c1", "read by": "MTS / tetrazolium / absorbance", "cell line": "CRFK cells", "result": ">100 µM"}
{"SMILES": "O=C1C[C@H](Cc2nc3ccccc3s2)N1C(=O)NCc1ccc([N+](=O)[O-])cc1", "read by": "MTT", "cell line": "COS-7", "result": ">51 µM"}
{"SMILES": "CC(C)N(Cc1cccc(OCCCCCC(=O)OC(=O)O)c1)C(=O)c1ccc(-c2cccc(Cl)c2)cc1", "cell line": "BJ", "result": ">20 µM"}
{"SMILES": "N#Cc1ccc(Nc2cc(Oc3ccc(C#N)cc3)c3ccccc3n2)cc1", "read by": "MTT", "cell line": "HuCCA-1", "result": "≥50 µg/mL"}
{"SMILES": "Cn1nnc(C[C@H]2CC(=O)N2C(=O)NCc2ccc([N+](=O)[O-])cc2)n1", "read by": "MTT", "cell line": "COS-7", "result": ">133 µM"}
{"SMILES": "Nc1nc(Cl)cc(NCCCO)n1", "cell line": "MDCK", "result": ">490 µM"}
{"SMILES": "Cn1c(CNc2ccnc3cc(Cl)ccc23)nc(-c2ccccc2)c1CN1CCCC1", "read by": "MTT", "cell line": "HMEC-1", "result": "28.6 µM"}
{"SMILES": "Cc1cc(NCCN2CCOCC2)c2ccc3c(ccc4c(NCCN5CCOCC5)cc(C)nc43)c2n1", "read by": "MTT", "cell line": "Macrophage line RAW 264.7", "result": "0.00612 µM"}
{"SMILES": "COC1=CCC(C2C3(CO)C4N(Cc5ccc(OC)cc5)C5C6(CO)C(c7ccc(OC)cc7)C4(CO)C3N(Cc3ccc(OC)cc3)C6C25CO)C=C1", "cell line": "EPG85-257DB", "result": "40 µM"}
{"SMILES": "Nc1nc(Cl)cc(NCCC2(CO)CCC2)n1", "cell line": "MDCK", "result": ">120 µM"}
{"SMILES": "OCC12C(c3ccccc3)C3(CO)C4N(Cc5ccccc5)C1C1(CO)C(C5C=CC=CC5)C4(CO)C3N(Cc3ccccc3)C21", "cell line": "EPG85-257P", "result": "80 µM"}
{"SMILES": "COc1ccc(Cc2cc(C3CCN(C(=O)c4ccc5occc5c4)CC3)nc(N)n2)cc1", "cell line": "Jurkat cells (PMA-stimulated)", "result": ">5 µM"}
{"SMILES": "O=C1C[C@H](Cc2cccs2)N1C(=O)NCc1ccc(C(F)(F)F)cc1", "read by": "MTT", "cell line": "COS-7", "result": ">16 µM"}
{"SMILES": "Cc1ccc(-c2cnc(CNc3ccnc4cc(Cl)ccc34)[nH]2)cc1", "read by": "MTT", "cell line": "HMEC-1", "result": "7.769 µM"}
{"SMILES": "Cc1nc2ccccc2n1C(=O)/C=C/c1ccccc1", "read by": "MTT / absorbance", "cell line": "8E5", "result": ">30 µg/mL"}
{"SMILES": "CC(C)N(Cc1cccc(OCCCCCC(=O)OC(=O)O)c1)C(=O)c1ccc(-c2ccncc2)cc1", "cell line": "BJ", "result": ">20 µM"}
{"SMILES": "Cn1cc(-c2ccccc2)nc1CNc1ccnc2cc(Cl)ccc12", "read by": "MTT", "cell line": "HMEC-1", "result": "17.5 µM"}
{"SMILES": "CC(C)c1ccc(NC(=O)NOCCCCCC(=O)NO)cc1", "read by": "sulforhodamine", "cell line": "NFF cells", "result": "7.6 µM"}
{"SMILES": "Nc1nc(Cl)c2ncn(/C=C3/C[C@H]3CO)c2n1", "cell line": "H-1", "result": ">50 µM"}
{"SMILES": "Nc1ccn(C[C@@H](CO)OCP(=O)(O)O)c(=O)n1", "cell line": "MA-104", "result": "2330 µM"}
{"SMILES": "Clc1ccc2c(NCc3nc(-c4ccccc4)c(CN4CCCC4)s3)ccnc2c1", "read by": "MTT", "cell line": "HMEC-1", "result": "30.4 µM"}
{"SMILES": "Cc1ccc(-c2nc3ccccc3n2C(=O)/C=C/c2ccccc2)cc1", "read by": "MTT / absorbance", "cell line": "8E5", "result": "<10 µg/mL"}
{"SMILES": "CC(C)Nc1nc2cc(Cl)c(Cl)cc2n1[C@@H]1O[C@@H](C)[C@@H](O)[C@H]1O", "read by": "ATP", "cell line": "MOLT-3", "result": "64 µM"}
{"SMILES": "COc1ccc(Cc2cc(C3CCN(C(C)=O)CC3)nc(N)n2)cc1", "cell line": "Jurkat cells (PMA-stimulated)", "result": ">5 µM"}
{"SMILES": "C#CCCC(=O)CCCc1ccc(OC)c(OC)c1", "cell line": "BJ", "result": "<7.5 µM"}
{"SMILES": "Clc1ccc(-c2nc(CNc3ccnc4cc(Cl)ccc34)[nH]c2CN2CCCC2)cc1", "read by": "MTT", "cell line": "HMEC-1", "result": "2.056 µM"}
{"SMILES": "CCOC(=O)CCCCCOc1cccc(CN(C(=O)c2ccc(-c3cccc(-c4ccccc4)c3)cc2)C(C)C)c1", "cell line": "BJ", "result": ">20 µM"}
{"SMILES": "O=C1/C(=C/c2ccc(-c3cc(C(F)(F)F)ccc3Cl)o2)SC(=S)N1Cc1ccc(Cl)cc1", "read by": "MTT", "cell line": "HT-29", "result": "8.3 µM"}
{"SMILES": "CC1(C)CCC[C@]2(C)[C@H]3C[C@@H](C4=CCOC4=O)CC3=CC[C@@H]12", "read by": "absorbance", "cell line": "P-388", "result": "19.5 µM"}
{"SMILES": "O=C1C[C@H](Cc2nc3ccccc3s2)N1C(=O)NCc1ccc(C(F)(F)F)cc1", "read by": "MTT", "cell line": "COS-7", "result": ">25 µM"}
{"SMILES": "CS(=O)(=O)c1ccc(Cc2cc(C3CCN(C(=O)c4ccc5c(c4)OCO5)CC3)nc(N)n2)cc1", "cell line": "Jurkat cells (PMA-stimulated)", "result": ">5 µM"}
{"SMILES": "C=C(C)[C@@H]1CC[C@]2(C(=O)N[C@@H](CCSC)C(=O)OC)CC[C@@]3(C)C(CCC4[C@@]5(C)CC/C(=N\\O)C(C)(C)C5CC[C@]43C)C12", "read by": "MTT", "cell line": "MOLT-4/8", "result": "0.91 µM"}
{"SMILES": "Br.CN1C=CN(c2cccc(N3C=CN(C)C3)n2)C1", "read by": "sulforhodamine / absorbance", "cell line": "HT-29", "result": ">30 µM"}
{"SMILES": "COCC1(C)C2CC2[C@@]2(C)CC[C@@H](Br)[C@@](C)(O)CC[C@@H](C(C)(C)Br)OC(=O)c3ccc(O)c(c3)CC12", "read by": "MTT", "cell line": "DU4475 cells", "result": "3.3 µM"}
{"SMILES": "Nc1nc(C2CCN(C(=O)c3ccc4c(c3)OCO4)CC2)c2ccccc2n1", "cell line": "Jurkat cells (PMA-stimulated)", "result": "2.6 µM"}
{"SMILES": "C[C@@]1(O)[C@H](O)[C@@H](CO)O[C@H]1n1cnc2c(=O)[nH]c(N)nc21", "read by": "MTT / crystal violet", "cell line": "BHK-21", "result": ">100 µg/mL"}
{"SMILES": "CCOc1cccc(-c2ccc(C(=O)N(Cc3cccc(OCCCCCC(=O)OC(=O)O)c3)C(C)C)cc2)c1", "cell line": "HepG2", "result": ">20 µM"}
{"SMILES": "Cc1c2ccnc(Cl)c2cc2c3cn(C)ccc-3nc12", "cell line": "Macrophages", "result": ">1 µM"}
{"SMILES": "OC[C@H]1CC(n2c(Br)nc3cc(Cl)c(Cl)cc32)[C@H](O)[C@@H]1O", "read by": "ATP", "cell line": "MOLT-3", "result": "32 µM"}
{"SMILES": "CC(C)(C)c1ccc(NC(=O)NOCCCCCC(=O)NO)cc1", "read by": "sulforhodamine", "cell line": "NFF cells", "result": "4.9 µM"}
{"SMILES": "Cc1cc(C=O)cc(C)c1Oc1cc(Oc2c(C)cc(C=O)cc2C)c2ccccc2n1", "read by": "XTT", "cell line": "MOLT-3", "result": "2.62 µg/mL"}
{"SMILES": "COc1ccc(Cc2cc(C3CCN(C(=O)c4ccccc4)CC3)nc(N)n2)cc1", "cell line": "Jurkat cells (PMA-stimulated)", "result": ">5 µM"}
{"SMILES": "Clc1ccc2c(NCc3ccc(CN4CCCC4)s3)ccnc2c1", "read by": "MTT", "cell line": "HMEC-1", "result": "24.2 µM"}
{"SMILES": "CS(=N)(=O)c1ccc(C(=O)NC2CC3(C2)CC(c2nc4cc(Cl)ccc4o2)C3)o1", "read by": "absorbance", "cell line": "Primary human hepatocytes", "result": ">100 µM"}
{"SMILES": "Fc1ccc(-c2cnc(CNc3ccnc4cc(Cl)ccc34)[nH]2)cc1", "read by": "MTT", "cell line": "HMEC-1", "result": "9.921 µM"}
{"SMILES": "CCOC(=O)CCCCCOc1cccc(CN(C(=O)c2ccc(-c3ccc4c(c3)OCCO4)cc2)C(C)C)c1", "cell line": "HepG2", "result": ">20 µM"}
{"SMILES": "O=C1NC(=NCCc2ccc(Cl)c(Cl)c2)S/C1=C\\c1ccc(-c2ccc(C(=O)O)c(O)c2)o1", "read by": "MTT", "cell line": "BAE", "result": ">100 µM"}
{"SMILES": "COCc1ccc(C(=O)NC2CC3(C2)CC(c2nc4cc(Cl)ccc4o2)C3)o1", "read by": "absorbance", "cell line": "Primary human hepatocytes", "result": "94.2 µM"}
{"SMILES": "O=c1cnn([C@@H]2O[C@H](CO)[C@@H](O)[C@H]2O)c(=O)[nH]1", "read by": "MTT / crystal violet", "cell line": "Madin-Darby bovine kidney", "result": ">100 µg/mL"}
{"SMILES": "O=C1C[C@H](Cc2ccco2)N1C(=O)NCc1ccc(C(F)(F)F)cc1", "read by": "MTT", "cell line": "COS-7", "result": ">100 µM"}
{"SMILES": "NC(=O)c1cc(C(=O)NC2CC3(C2)CC(c2nc4cc(Cl)ccc4s2)C3)ccn1", "read by": "absorbance", "cell line": "Primary human hepatocytes", "result": ">50 µM"}
{"SMILES": "Cc1cc(C=O)cc(C)c1Oc1cc(Nc2ccc(C#N)cc2)nc2ccccc12", "read by": "MTT", "cell line": "HL-60", "result": "4.5 µM"}

Repeating the final 7 entries:

SMILES | read by | cell line | result
CCOC(=O)CCCCCOc1cccc(CN(C(=O)c2ccc(-c3ccc4c(c3)OCCO4)cc2)C(C)C)c1 |  | HepG2 | >20 µM
O=C1NC(=NCCc2ccc(Cl)c(Cl)c2)S/C1=C\c1ccc(-c2ccc(C(=O)O)c(O)c2)o1 | MTT | BAE | >100 µM
COCc1ccc(C(=O)NC2CC3(C2)CC(c2nc4cc(Cl)ccc4o2)C3)o1 | absorbance | Primary human hepatocytes | 94.2 µM
O=c1cnn([C@@H]2O[C@H](CO)[C@@H](O)[C@H]2O)c(=O)[nH]1 | MTT / crystal violet | Madin-Darby bovine kidney | >100 µg/mL
O=C1C[C@H](Cc2ccco2)N1C(=O)NCc1ccc(C(F)(F)F)cc1 | MTT | COS-7 | >100 µM
NC(=O)c1cc(C(=O)NC2CC3(C2)CC(c2nc4cc(Cl)ccc4s2)C3)ccn1 | absorbance | Primary human hepatocytes | >50 µM
Cc1cc(C=O)cc(C)c1Oc1cc(Nc2ccc(C#N)cc2)nc2ccccc12 | MTT | HL-60 | 4.5 µM

Lines come from different laboratories, so protocols vary. Blank or dashed fields: not listed here. a–b is a range or a potency band.